Here are results for one compound from BindingDB's records for doi:10.1124/mol.59.3.427 (The Centre For Addiction and Mental Health, 2001).

Amino acid sequences for entries named in this document (tags omitted). A change or cut given only in a name is not applied to a line headed by its entry.
UniProt Q9H3N8: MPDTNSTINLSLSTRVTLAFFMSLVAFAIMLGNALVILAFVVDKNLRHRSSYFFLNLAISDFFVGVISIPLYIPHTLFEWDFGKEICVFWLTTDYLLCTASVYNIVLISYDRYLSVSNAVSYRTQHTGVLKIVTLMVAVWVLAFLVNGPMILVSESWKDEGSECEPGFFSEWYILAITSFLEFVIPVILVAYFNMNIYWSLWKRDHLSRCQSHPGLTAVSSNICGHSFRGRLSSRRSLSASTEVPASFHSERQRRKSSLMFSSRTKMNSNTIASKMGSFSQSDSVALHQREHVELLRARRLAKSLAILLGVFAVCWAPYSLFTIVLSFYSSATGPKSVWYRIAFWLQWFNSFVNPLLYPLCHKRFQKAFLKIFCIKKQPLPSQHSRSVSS

In general, Ki refers to a measure of affinity in units of concentration, obtained from inhibition or displacement.

This assay addresses Histamine H4 receptor (Homo sapiens, UniProt Q9H3N8).

For the compound `CN(C)CCCN1c2ccccc2Sc2ccc(Cl)cc21` [[3-(2-Chloro-phenothiazin-10-yl)-propyl]-dimethyl-amine(Chlorpromazine)], the Ki turned out to be 50.2 nM.
